Compound potency records, mixed from different reports. Data source: NIAID ChemDB in PubChem.

Shared fields: enzyme or target tests

Lines come from different laboratories, so protocols vary.

NC(=O)c1nnn(Cc2cc(Cl)c(C(=O)c3ccc(Cl)cc3)c(Cl)c2)c1N ; measure: IC50 ; target: Nuclear factor-kappa B ; read by: gel ; value: <10 µM
CC(C)(O)c1cccc(CN2C(=O)N(Cc3cccc(C(C)(C)O)c3)[C@H](Cc3ccccc3)[C@H](O)[C@@H](O)[C@H]2Cc2ccccc2)c1 ; measure: inhibition ; target: Cathepsin D ; dose: 12.5 µM ; value: 0%
NC(N)=NCCC[C@@H]1NC(=O)CNC(=O)[C@H](Cc2ccc3ccccc3c2)NC(=O)[C@H](CCCN=C(N)N)NC(=O)[C@@H](Cc2ccc(O)cc2)NC1=O ; measure: IC50 ; target: CXCR4 ; read by: radiometric ; value: 0.3 µM
Nc1ncnc2c1ncn2CCOCP(=O)(O)O ; measure: IC50 ; target: Nucleotidase ; value: >500 µM
O=C(C1CCCCC1)N1C[C@H](CN2CCC(c3ccccc3)CC2)[C@@H](c2ccccc2)C1 ; changes: CCR5-E283A ; measure: fold resistance ; target: CCR5 ; read by: radiometric ; value: >434.8
NC(N)=NCCC[C@@H]1NC(=O)[C@@H](Cc2ccc(O)cc2)NC(=O)CNC(=O)[C@H](Cc2ccc3ccccc3c2)NC(=O)[C@@H]2C[C@H](N=C(N)N)CN2C1=O ; measure: IC50 ; target: CXCR4 ; read by: radiometric ; value: >1 µM
CN(CCC(CCN1CCC2(CC1)CS(=O)(=O)c1ccccc12)c1ccccc1)S(=O)(=O)c1ccccc1 ; measure: IC50 ; target: CCR5 ; read by: radioligand binding / binding ; value: 0.34 µM
CC(C)[C@H](C(=O)O)N1C[C@H](CN2CCC(c3ccc(F)cc3)CC2)[C@@H](c2ccccc2)C1 ; measure: IC50 ; target: L-type Ca2+ channel ; value: >10 µM
CC(C)[C@H](NC(=O)[C@@H](NC(=O)C1CCCCC1P(=O)(O)C(Cc1ccccc1)NC(=O)OCc1ccccc1)C(C)C)C(N)=O ; measure: Ki ; target: Cathepsin D ; setting: pH 3.5 ; value: 0.3 µM
C[C@@H](O)[C@H](NC(=O)OCc1ccccc1)C(=O)N[C@@H](CO)C(=O)NN ; measure: IC50 ; target: Ornithine decarboxylase ; value: 0.045 µM
NC(N)=NCCC[C@@H]1NC(=O)[C@H](Cc2ccc(F)cc2)NC(=O)[C@@H](Cc2ccc(O)cc2)NC(=O)CNC(=O)[C@H](Cc2ccc3ccccc3c2)NC1=O ; measure: IC50 ; target: CXCR4 ; read by: radiometric ; value: 0.057 µM
CNC(C)[C@H]1O[C@H](O[C@@H]2[C@@H](O)[C@H](O[C@@H]3OC[C@@](C)(O)[C@@H](NC)[C@@H]3O)[C@@H](NC(=O)[C@@H](N)CCCN=C(N)N)C[C@H]2NC(=O)[C@@H](N)CCCN=C(N)N)[C@H](NC(=O)[C@@H](N)CCCN=C(N)N)[C@@H](O)[C@@H]1O ; measure: IC50 ; target: CXCR4 ; value: 7.2 µM
CC(C)(C)NC(=O)[C@H]1N(C(=O)[C@@H](O)[C@H](Cc2ccccc2)NC(=O)[C@H](CC(N)=O)NC(=O)COc2cccc3ccccc23)CSC1(C)C ; measure: IC50 ; target: Cathepsin D ; read by: HPLC ; value: 6.5 µM
NC(N)=NCCC[C@H](N)C(=O)NC[C@@H]1OC(O[C@H]2[C@@H](O)[C@H](O[C@@H]3[C@@H](O)[C@H](NC(=O)[C@@H](N)CCCN=C(N)N)C[C@H](NC(=O)[C@@H](N)CCCN=C(N)N)[C@H]3O[C@H]3O[C@H](CNC(=O)[C@@H](N)CCCN=C(N)N)[C@@H](O)[C@H](O)[C@H]3NC(=O)[C@@H](N)CCCN=C(N)N)O[C@@H]2CO)[C@H](NC(=O)[C@@H](N)CCCN=C(N)N)[C@@H](O)[C@@H]1O ; measure: inhibition ; target: CXCR4 ; dose: 10 µM ; read by: flow cytometry ; value: 90%
CN1Cc2c(c3c4ccccc4n(C)c3c3c2c2ccccc2n3CCC#N)C1=O ; measure: IC50 ; target: cAMP-dependent protein kinase ; value: >30 µM
NC[C@@H]1O[C@H](O[C@H]2[C@@H](O)[C@H](O[C@@H]3[C@@H](O)[C@H](N)C[C@H](N)[C@H]3O[C@H]3O[C@H](CO)[C@@H](O)[C@H](O)[C@H]3N)O[C@@H]2CO)[C@H](N)[C@@H](O)[C@@H]1O ; measure: inhibition ; target: CXCR4 ; dose: 20 µM ; read by: flow cytometry ; value: 0%
CC(C)(C)OC(=O)N[C@@H](Cc1ccccc1)[C@H](O)CNC[C@@H](O)[C@H](Cc1ccccc1)NC(=O)OC(C)(C)C ; measure: IC50 ; target: Cathepsin D ; read by: absorbance ; value: >31 µM
NC(N)=NCCC[C@H](N)C(=O)NC[C@@H]1OC(O[C@H]2[C@@H](O)[C@H](O[C@@H]3[C@@H](O)[C@H](NC(=O)[C@@H](N)CCCN=C(N)N)C[C@H](NC(=O)[C@@H](N)CCCN=C(N)N)[C@H]3O[C@H]3O[C@H](CO)[C@@H](O)[C@H](O)[C@H]3NC(=O)[C@@H](N)CCCN=C(N)N)O[C@@H]2CO)[C@H](NC(=O)[C@@H](N)CCCN=C(N)N)[C@@H](O)[C@@H]1O ; measure: IC50 ; target: CXCR4 ; read by: flow cytometry ; value: <10 µM
CC[C@H](C)[C@H](NC(=O)OCc1ccccc1)C(=O)N[C@@H](Cc1cnc[nH]1)C(=O)NC(Cc1ccccc1)P(=O)(O)CC(Cc1ccccc1)C(=O)N[C@H](C(=O)N[C@H](C(N)=O)C(C)C)C(C)C ; measure: Ki ; target: Cathepsin D ; setting: pH 3.5 ; value: 0.011 µM
CN1CC[C@H](c2c(O)cc(O)c3c(=O)cc(-c4ccccc4F)oc23)[C@H](O)C1 ; measure: IC50 ; target: Cyclin-dependent kinase 9 ; read by: kinase activity ; value: 0.002 µM
NC(N)=NCCCC[C@@H]1NC(=O)[C@H](CCCN=C(N)N)NC(=O)[C@@H](Cc2ccc(O)cc2)NC(=O)CNC(=O)[C@H](Cc2ccc3ccccc3c2)NC1=O ; measure: IC50 ; target: CXCR4 ; read by: radiometric ; value: 0.033 µM
O=C(O[C@@H]1Cc2c(O)cc(O)cc2O[C@@H]1c1ccc(O)c(O)c1)c1cc(O)c(O)c(O)c1 ; measure: IC50 ; target: CD4 ; read by: ELISA ; value: >200 µM
NC(N)=NCCC[C@H](N)C(=O)NC[C@H]1O[C@H](O[C@H]2[C@H](O)[C@@H](O)[C@H](NC(=O)[C@@H](N)CCCN=C(N)N)C[C@@H]2NC(=O)[C@@H](N)CCCN=C(N)N)[C@H](NC(=O)[C@@H](N)CCCN=C(N)N)[C@@H](O)[C@@H]1O ; measure: inhibition ; target: CXCR4 ; dose: 10 µM ; read by: flow cytometry ; value: 60%
CC(C)=CCC[C@H](C)[C@H]1CC[C@]2(C)C[C@H]3[C@H](C(=O)C[C@@]3(C)O)C(C=O)=C[C@@H]12 ; measure: IC50 ; target: gp120 ; read by: radiometric ; value: 40 µM
NC(N)=NCCC[C@H](N)C(=O)NC[C@@H]1O[C@H](O[C@H]2[C@@H](O)[C@H](O[C@@H]3[C@@H](O)[C@H](N)C[C@H](N)[C@H]3O[C@H]3O[C@H](CO)[C@@H](O)[C@H](O)[C@H]3N)O[C@@H]2CO)[C@H](N)[C@@H](O)[C@@H]1O ; measure: IC50 ; target: CXCR4 ; read by: flow cytometry ; value: >10 µM
CC(C)(C)NC(=O)[C@@H]1CCCN1C(=O)[C@@H](O)[C@H](Cc1ccccc1)NC(=O)[C@H](CC(N)=O)NC(=O)COc1cccc2ccccc12 ; measure: IC50 ; target: Cathepsin D ; read by: HPLC ; value: 18 µM
O=C(O)c1cc(O)cc(O)c1N=Nc1ccc(/C=C/c2ccc(N=Nc3c(O)cc(O)cc3C(=O)O)cc2S(=O)(=O)O)c(S(=O)(=O)O)c1 ; measure: inhibition ; target: gp120 ; dose: 50 µM ; value: 100%
CN(CC(CCN1CCC2(CC1)CS(=O)c1ccccc12)c1ccccc1)S(=O)(=O)c1ccccc1 ; measure: IC50 ; target: CCR5 ; read by: radioligand binding / binding ; value: 0.036 µM
CN(CCCCON)C[C@H]1O[C@@H](n2cnc3c(N)ncnc32)[C@H](O)[C@@H]1O ; measure: IC50 ; target: Ornithine decarboxylase ; value: 150 µM
CC(=O)N1CCC(C(=O)N(CCCN2CCC(Cc3ccc(C(N)=O)cc3)CC2)c2ccc(C)c(Cl)c2)CC1 ; measure: IC50 ; target: CCR3 ; read by: radiometric ; value: >10 µM
NC(N)=NCCC[C@H](N)C(=O)NC[C@@H]1OC(O[C@H]2[C@@H](O)[C@H](O[C@@H]3[C@@H](O)[C@H](NC(=O)[C@@H](N)CCCN=C(N)N)C[C@H](NC(=O)[C@@H](N)CCCN=C(N)N)[C@H]3O[C@H]3O[C@H](CNC(=O)[C@@H](N)CCCN=C(N)N)[C@@H](O)[C@H](O)[C@H]3NC(=O)[C@@H](N)CCCN=C(N)N)O[C@@H]2CO)[C@H](NC(=O)[C@@H](N)CCCN=C(N)N)[C@@H](O)[C@@H]1O ; measure: IC50 ; target: CXCR4 ; value: 1.3 µM
NC(N)=NCCC[C@@H]1NC(=O)CNC(=O)[C@H](Cc2ccc3ccccc3c2)NC(=O)[C@H](CCCN=C(N)N)NC(=O)[C@@H](Cc2ccc(F)cc2)NC1=O ; measure: IC50 ; target: CXCR4 ; read by: radiometric ; value: 0.035 µM
CC(C)(C)NC(=O)[C@H]1N(C(=O)[C@@H](O)[C@H](Cc2ccccc2)NC(=O)[C@H](CC(N)=O)NC(=O)COc2cccc(Nc3ccccc3)c2)CSC1(C)C ; measure: IC50 ; target: Cathepsin D ; read by: HPLC ; value: 1.6 µM
CN1C(=O)C(c2cc(Cl)c(O)c(Cl)c2)NC(=O)[C@@H]2NC(=O)C(c3cc(Cl)c(O)c(Cl)c3)NC(=O)[C@H](NC(=O)C(=O)c3cc(Cl)c(O)c(Cl)c3)Cc3c[nH]c4c(cccc34)-c3cc2cc(c3O)Oc2ccc(cc2)CC1C(=O)NC(C(=O)O)c1ccc(O)cc1 ; measure: IC50 ; target: gp120 ; read by: ELISA ; value: <10 µg/mL
CSC[C@H](NC(=O)COc1cccc2ccccc12)C(=O)N[C@@H](Cc1ccccc1)[C@H](O)C(=O)N1CSC(C)(C)[C@H]1C(=O)NC(C)(C)C ; measure: IC50 ; target: Cathepsin D ; read by: HPLC ; value: 1.5 µM
NC(N)=NCCC[C@@H]1NC(=O)[C@H](CCCN=C(N)N)NC(=O)[C@@H](Cc2cnc[nH]2)NC(=O)CNC(=O)[C@H](Cc2ccc3ccccc3c2)NC1=O ; measure: IC50 ; target: CXCR4 ; read by: radiometric ; value: 0.15 µM
CC(=O)N[C@@H](Cc1cc(I)c(Oc2ccc(O)c(I)c2)c(I)c1)C(=O)O ; measure: IC50 ; target: Protein disulfide isomerase ; value: 86 µM
CN(CCC(CCN1CCC(c2ccccc2)CC1)c1ccccc1)S(=O)(=O)c1ccccc1 ; measure: IC50 ; target: CCR5 ; read by: radioligand binding / binding ; value: 0.5 µM
O=Nc1c(-c2c(O)[nH]c3ccccc23)[nH]c2ccccc12 ; measure: IC50 ; target: Cyclin-dependent kinase 7 ; read by: radiometric ; value: >4 µM
NC(N)=NCCC[C@@H]1NC(=O)[C@H](CCCN=C(N)N)NC(=O)[C@@H](Cc2ccc(N)cc2)NC(=O)CNC(=O)[C@H](Cc2ccc3ccccc3c2)NC1=O ; measure: IC50 ; target: CXCR4 ; read by: radiometric ; value: 0.1 µM
CC(C)(C)NC(=O)[C@@H]1CSCN1C(=O)[C@@H](O)[C@H](Cc1ccccc1)NC(=O)[C@H](CC(N)=O)NC(=O)COc1cccc2ccccc12 ; measure: IC50 ; target: Cathepsin D ; read by: HPLC ; value: 100 µM
NC(N)=NCCC[C@@H]1NC(=O)[C@H](Cc2ccc(F)cc2)NC(=O)[C@@H](Cc2ccc(O)cc2)NC(=O)CNC(=O)[C@H](Cc2ccc3ccccc3c2)NC1=O ; measure: IC50 ; target: CXCR4 ; read by: radiometric ; value: 0.057 µM
NC(N)=NCCC[C@H]1/C=C/[C@@H](Cc2ccc3ccccc3c2)C(=O)NCC(=O)N[C@H](Cc2ccc(O)cc2)C(=O)N[C@@H](CCCN=C(N)N)C(=O)N1 ; measure: IC50 ; target: CXCR4 ; read by: radiometric ; value: 31–100 µM

Again, the opening 4 rows:

structure	changes	measure	target	dose	read by	setting	value
NC(=O)c1nnn(Cc2cc(Cl)c(C(=O)c3ccc(Cl)cc3)c(Cl)c2)c1N		IC50	Nuclear factor-kappa B		gel		<10 µM
CC(C)(O)c1cccc(CN2C(=O)N(Cc3cccc(C(C)(C)O)c3)[C@H](Cc3ccccc3)[C@H](O)[C@@H](O)[C@H]2Cc2ccccc2)c1		inhibition	Cathepsin D	12.5 µM			0%
NC(N)=NCCC[C@@H]1NC(=O)CNC(=O)[C@H](Cc2ccc3ccccc3c2)NC(=O)[C@H](CCCN=C(N)N)NC(=O)[C@@H](Cc2ccc(O)cc2)NC1=O		IC50	CXCR4		radiometric		0.3 µM
Nc1ncnc2c1ncn2CCOCP(=O)(O)O		IC50	Nucleotidase				>500 µM

Inhibition is in % at the dose shown (toxicity tests: loss of growth or viability). Fold resistance has wild type as its base. An empty or dashed field is not shown. ICn is the concentration giving n% inhibition. Two numbers with a dash give a range or band.